## PSTVd loop 15 mutant pool in Nicotiana benthamiana

Reference: Wu et al. 2024, doi:10.1371/journal.ppat.1012142.

PSTVd intermediate strain, loop 15: wild type GGAAACCGCUACUAC, pool pattern GGAAACCGNNNNNNC; upper and lower strand joined, each 5' to 3', the first 7 letters being the upper strand, closing pairs included.

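Three N. benthamiana plants were inoculated with the whole mutant pool. Samples came from the inoculated region at 5 days, the leaf margin at 10 and upper systemic leaves at 12.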

Values are reads per thousand in the sample; higher means more abundant, 0 means not found. Each site shows the three plants. "Pool" is the share in the plasmid pool used as inoculum, on the same scale. The inoculated region was read from the minus strand, the other sites from the plus strand. IR is the inoculated region, LM the leaf margin, Sys the systemic leaves. For reference, wild type rose from 33.9 per thousand in the pool to 202, 200, 159 (inoculated region), 724, 746, 710 (leaf margin) and 856, 883, 880 (systemic leaves).

GGAAACCGAACGCUC (pool 0.288) gave IR 0.115 / 0.241 / 0.228; LM 0.0162 / 0 / 0.0200; Sys 0 / 0 / 0.
GGAAACCGAAGUUCC (pool 0.256) gave IR 0.0819 / 0.0321 / 0.0952; LM 0.0162 / 0.0223 / 0; Sys 0 / 0 / 0.
GGAAACCGAGACAUC (pool 0.160) gave IR 0.0819 / 0.0803 / 0.0762; LM 0 / 0 / 0; Sys 0 / 0 / 0.
GGAAACCGAGACCAC (pool 0.352) gave IR 0.311 / 0.305 / 0.248; LM 0.0162 / 0.0445 / 0.100; Sys 0.0483 / 0 / 0.
GGAAACCGAGAGCAC (pool 0.240) gave IR 0.213 / 0.353 / 0.400; LM 0.129 / 0.0668 / 0.0601; Sys 0.0483 / 0.0908 / 0.0912.
GGAAACCGCACCUCC (pool 0.160) gave IR 0.164 / 0.0161 / 0.0952; LM 0 / 0.0223 / 0.0200; Sys 0.0161 / 0 / 0.
GGAAACCGCAGACUC (pool 0.224) gave IR 0.180 / 0.129 / 0.209; LM 0 / 0 / 0.0200; Sys 0 / 0 / 0.
GGAAACCGCCUGACC (pool 0.272) gave IR 0.262 / 0.161 / 0.133; LM 0 / 0.0223 / 0.0401; Sys 0.0322 / 0 / 0.
GGAAACCGCGUCCCC (pool 0.256) gave IR 0.0655 / 0.0964 / 0.0762; LM 0.0485 / 0 / 0; Sys 0 / 0 / 0.
GGAAACCGCUACCGC (pool 0.160) gave IR 0.0819 / 0.0803 / 0.0381; LM 0.0162 / 0 / 0.0200; Sys 0 / 0 / 0.
GGAAACCGCUCCGAC (pool 0.336) gave IR 0.131 / 0.129 / 0.0952; LM 0.0970 / 0.0445 / 0.0801; Sys 0.0322 / 0.0151 / 0.
GGAAACCGCUCUUGC (pool 0.256) gave IR 0.115 / 0.161 / 0.0381; LM 0 / 0.0223 / 0.0200; Sys 0 / 0 / 0.
GGAAACCGGACUAGC (pool 0.160) gave IR 0.164 / 0.145 / 0.0762; LM 0 / 0 / 0; Sys 0 / 0 / 0.
GGAAACCGGCGAGAC (pool 0.240) gave IR 0.180 / 0.0643 / 0.0571; LM 0.0162 / 0.0223 / 0.0401; Sys 0 / 0 / 0.
GGAAACCGGCGCAGC (pool 0.144) gave IR 0.0819 / 0.0643 / 0.0952; LM 0 / 0 / 0; Sys 0 / 0 / 0.
GGAAACCGGGUGGAC (pool 0.128) gave IR 0.0655 / 0.0321 / 0.152; LM 0 / 0 / 0; Sys 0.0161 / 0 / 0.
GGAAACCGGUCUCAC (pool 0.240) gave IR 0.115 / 0.0482 / 0.114; LM 0.0162 / 0 / 0; Sys 0 / 0 / 0.
GGAAACCGGUUUUAC (pool 0.208) gave IR 0.246 / 0.241 / 0.305; LM 0.146 / 0.156 / 0.180; Sys 0.0644 / 0 / 0.
GGAAACCGUCAGCGC (pool 0.288) gave IR 0.115 / 0.0803 / 0.133; LM 0 / 0.0223 / 0.0200; Sys 0 / 0 / 0.
GGAAACCGUGUCAUC (pool 0.176) gave IR 0.115 / 0.112 / 0.0571; LM 0 / 0.0223 / 0; Sys 0.0161 / 0 / 0.
GGAAACCGUGUGAGC (pool 0.256) gave IR 0.0655 / 0.112 / 0.171; LM 0 / 0 / 0; Sys 0 / 0 / 0.
GGAAACCGUGUGGUC (pool 0.368) gave IR 0.0819 / 0.0643 / 0.0190; LM 0 / 0 / 0; Sys 0.0161 / 0 / 0.
GGAAACCGUUAAUUC (pool 0.192) gave IR 0.344 / 0.353 / 0.267; LM 0.129 / 0.0668 / 0.160; Sys 0.145 / 0.0605 / 0.137.
GGAAACCGUUGGCCC (pool 0.176) gave IR 0.0655 / 0.0643 / 0.0762; LM 0 / 0 / 0.0200; Sys 0 / 0 / 0.
GGAAACCGUUUAACC (pool 0.192) gave IR 0.0655 / 0.0643 / 0.152; LM 0.0323 / 0 / 0; Sys 0 / 0 / 0.

The first 2 entries again:

GGAAACCGAACGCUC (pool 0.288) read IR 0.115 / 0.241 / 0.228; LM 0.0162 / 0 / 0.0200; Sys 0 / 0 / 0.
GGAAACCGAAGUUCC (pool 0.256) read IR 0.0819 / 0.0321 / 0.0952; LM 0.0162 / 0.0223 / 0; Sys 0 / 0 / 0.

Sequences that differ at fixed positions probably stem from PCR or sequencing errors, and defective variants can be carried along by functional ones. Samples held 43,870 to 66,106 reads, so the smallest values rest on one or two reads.